Pooled drug test results. Numbers come from NIAID ChemDB, via PubChem.

All rows: growth or infection tests; organism: Herpes simplex virus 2; read by: plaque count; measure: EC50

An empty or dashed field is not shown. ECn is the concentration giving n% inhibition of infection, replication or growth. a–b is a range or a potency band. Neighbouring rows are from separate reports.

structure	strain	cells	value
Nc1nc(=O)n([C@@H]2O[C@H](CO)[C@@H](O)[C@@H]2F)cc1I	G-FAU-C2	VERO	3.6 µM
CC(C)c1ccc(O)c(O)c(=O)c1	Clinical isolate	HFF	0.38 µM
Cn1c(=O)c(C(N)=O)c(O)c2ccc(-c3ccncc3)cc21	Curtis	VERO	2.1 µg/mL
Cc1cn([C@@H]2C[C@H](CO)[C@@H](O)C2)c(=O)[nH]c1=O	-	HFF	>10 µg/mL
[N-]=[N+]=NC(CBr)c1cn(CCC(CO)CO)c(=O)[nH]c1=O	MS	VERO	>270 µM
COC(O)[C@@H]1OC12[C@@H](CO[Si](C)(C)C(C)(C)C)O[C@@H](n1cc(C)c(=O)[nH]c1=O)[C@@H]2O[Si](C)(C)C(C)(C)C	-	VERO	>23 µM
Nc1nc(=O)n([C@@H]2O[C@H](CO)[C@@H](O)[C@@H]2F)cc1I	G	VERO	0.9 µM
Nc1ccn([C@H]2O[C@@H](CO)[C@H](O)[C@H]2F)c(=O)n1	G-FAC-C1	VERO	7.3 µM
CCCCCCCCCCCCCCCCOCCCOP(=O)(O)OCC(CO)OCn1cnc2c(=O)[nH]c(N)nc21	-	MRC-5	1.5 µM
Cc1cccc(C)c1N(CC(=O)Nc1ccc(-c2ncon2)cc1)C(=O)C1CCS(=O)(=O)CC1	OOM	-	0.022 µg/mL
O=C1C2=C(C(=O)c3ccccc31)C1Oc3cc4c(cc3C1CO2)OCCO4	G	VERO	0.025 µg/mL
COC(=O)CC1(O)C(O[Si](C)(C)C(C)(C)C)[C@H](n2ccc(=O)[nH]c2=O)O[C@@H]1CO[Si](C)(C)C(C)(C)C	-	VERO	>3.2 µM
O=C(NCc1ccc(Cl)cc1)c1cn2c3c(cc(CN4CCOCC4)cc3c1=O)OC(c1cccnc1)C2	L6010541 (WILD TYPE)	HFF	16.3 µM
O=c1[nH]c(=O)n([C@@H]2O[C@H](CO)[C@@H](O)[C@@H]2O)cc1/C=C/Br	MS	CCRF-HSV-B	>100 µg/mL
COC(=O)/C=C1/[C@@H](O[Si](C)(C)C(C)(C)C)[C@H](n2cc(C)c(=O)n(C)c2=O)O[C@@H]1CO[Si](C)(C)C(C)(C)C	-	VERO	>100 µM
Nc1nc2c(ncn2COCCO)c(=O)[nH]1	91075	SIRC	0.2 µM
Nc1ncnc2c1ncn2[C@@H]1O[C@H](COP(=O)(O)O)[C@@H](O)[C@@H]1O	MS	MEF	31 µM
Nc1nc2c(ncn2COC(CO)CO)c(=O)[nH]1	333	-	0.2 µM
CCCn1cc(C(N)=O)c(=O)c2ccc(-c3ccncc3)cc21	Curtis	VERO	>6.25 µg/mL
Cn1cc(C(=O)NCc2ccc(Cl)cc2)c(=O)c2cc(CN3CCOCC3)ccc21	SR (WILD TYPE)	HFF	2.6 µM
[O-][n+]1onc2ncnc(N3CC[N+]4(CC3)CC[N+]3(CCN(c5ncnc6no[n+]([O-])c56)CC3)CC4)c21	P	GMK	10.2 µM
Nc1nc2c(ncn2COC(CO)CO)c(=O)[nH]1	-	-	0.001–0.01 µM
Nc1nc2c(ncn2CC[C@@H](O)CO)c(=O)[nH]1	72	VERO	4 µM
CCOc1ccc(-c2c3cc(O)c(=O)cc-3oc3cc(O)c(O)cc23)cc1	Clinical isolate	VERO	3.93 µM
Nc1nc2c(ncn2COC(CO)CF)c(=O)[nH]1	G	VERO	>100 µM
Nc1nc2c(ncn2CCC(CO)CO)c(=O)[nH]1	MS	MRC-5	0.8 µg/mL
CCCCCCCCCCCCCCCCOP(=O)(O)CO[C@H](CO)Cn1ccc(N)nc1=O	MS	HFF	0.2 µM
Nc1ccn(C[C@@H](CO)OCP(=O)(O)O)c(=O)n1	G	VERO	13–25 µg/mL
Nc1nc2c(ncn2COC(CO)CO)c(=O)[nH]1	-	MRC-5	0.2 µM
CC(=O)OC[C@H]1[C@H](COC(C)=O)[C@@H](CO)O[C@H]1n1cnc2c(N)ncnc21	Clinical isolate HEETER	MEF	160 µM
CCCn1cc2c(O)cnc-2c2ccc(-c3ccncc3)cc21	-	VERO	>100 µg/mL
Cc1cn([C@@H]2O[C@H](CO)[C@@H](O)[C@@H]2F)c(=O)[nH]c1=O	G	VERO	0.033 µM
Cn1cc(C(=O)NCc2ccc(Cl)cc2)c(=O)c2cc(CN3CCOCC3)ccc21	35D	VERO	4.6 µM
Cc1cc(C)c(OC(=O)c2ccc(Cl)cc2)c(=O)c(C)c1	Clinical isolate	VERO	4.12 µM
Nc1nc2c(ncn2CCCCO)c(=O)[nH]1	B4327	VERO	13 µM
NC1=NC2C(C=CN2CC(CO)CCO)C(=O)N1	-	-	0.01–0.1 µM
O=C(O)P(=O)(O)O	G-FMAU-C1	VERO	47 µM
CC(C)(C)[Si](C)(C)OC[C@H]1O[C@@H](n2ccc(=O)[nH]c2=O)[C@H](O[Si](C)(C)C(C)(C)C)[C@@]12O[C@H]2C(N)=O	-	VERO	>8 µM
CCCCCCCCCCCCCCCCOP1(=O)CO[C@@H](Cn2ccc(N)nc2=O)CO1	SR	HFF	>1 µM
COC(=O)[C@@H]1O[C@]12[C@@H](CO[Si](C)(C)C(C)(C)C)O[C@@H](n1ccc(=O)[nH]c1=O)[C@@H]2O[Si](C)(C)C(C)(C)C	-	VERO	26 µM
CCc1cn([C@H]2C[C@H](O)[C@@H](CO)O2)c(=O)[nH]c1=O	G-FIAC-C1	VERO	257 µM
Nc1ccn(C[C@@H](CO)OCP(=O)(O)O)c(=O)n1	G	HFF	18 µM
Nc1nc2c(ncn2CC(CO)CCO)c(=O)[nH]1	91075	HEL	23 µM
Nc1nc2c(ncn2CCC(CO)CO)c(=O)[nH]1	-	-	1–10 µM
CCCCCCCCCCCCCCCCCCOCCCOP1(=O)CO[C@@H](Cn2ccc(N)nc2=O)CO1	G	HFF	>1 µM
CCOC(=O)CC1(O)[C@@H](CO[Si](C)(C)C(C)(C)C)O[C@@H](n2ccc(=O)[nH]c2=O)[C@@H]1O[Si](C)(C)C(C)(C)C	-	VERO	>3.4 µM
O=C(O[C@@H]1[C@@H](c2c(O)cc(O)c3c2O[C@H](c2cc(O)c(O)c(O)c2)[C@H](OC(=O)c2cc(O)c(O)c(O)c2)C3)c2c(O)cc(O)cc2O[C@@H]1c1cc(O)c(O)c(O)c1)c1cc(O)c(O)c(O)c1	196	VERO	0.4 µM
C=C1[C@H](CO)[C@@H](O)C[C@@H]1n1cnc2c(=O)[nH]c(N)nc21	-	WI-38	6 µM
CCCn1cc2c(=O)n(C)nc-2c2ccc(-c3ccncc3)cc21	-	VERO	>3.1 µg/mL
CCCCCCCC/C=C\CCCCCCCOCCCOP1(=O)CO[C@@H](Cn2ccc(N)nc2=O)CO1	G	HFF	0.8 µM
Nc1nc2c(ncn2CC(CO)OCP(=O)(O)O)c(=O)[nH]1	186 (TK-)	WI-38	0.3 µM
Nc1nc2c(ncn2COCCO)c(=O)[nH]1	UW/TK-	HEL	250 µM
COc1ccc2nc3n[nH]c(C)c3c(Cl)c2c1	-	WI-38	1.2 µg/mL
CCCCCCCCCCCCOCCCOP1(=O)CO[C@@H](Cn2ccc(N)nc2=O)CO1	MS	HFF	>1 µM
NC(=O)c1cn(-c2ccc(F)cc2)c2cc(-c3cc[n+]([O-])cc3)ccc2c1=O	Curtis	VERO	>12.5 µg/mL

For reference, 5 entries again:

{"structure": "Nc1ccn(C[C@@H](CO)OCP(=O)(O)O)c(=O)n1", "strain": "G", "cells": "HFF", "value": "18 µM"}
{"structure": "CC(C)(C)[Si](C)(C)OC[C@H]1O[C@@H](n2ccc(=O)[nH]c2=O)[C@H](O[Si](C)(C)C(C)(C)C)[C@@]12O[C@H]2C(N)=O", "cells": "VERO", "value": ">8 µM"}
{"structure": "O=C1C2=C(C(=O)c3ccccc31)C1Oc3cc4c(cc3C1CO2)OCCO4", "strain": "G", "cells": "VERO", "value": "0.025 µg/mL"}
{"structure": "COC(=O)/C=C1/[C@@H](O[Si](C)(C)C(C)(C)C)[C@H](n2cc(C)c(=O)n(C)c2=O)O[C@@H]1CO[Si](C)(C)C(C)(C)C", "cells": "VERO", "value": ">100 µM"}
{"structure": "Nc1ccn([C@H]2O[C@@H](CO)[C@H](O)[C@H]2F)c(=O)n1", "strain": "G-FAC-C1", "cells": "VERO", "value": "7.3 µM"}